Results taken from article PMC11620640.

What follows are substances tested against SARS-CoV-2 prototype (PT) spike receptor binding domain (RBD) (SARS-CoV-2) (UniProt P0DTC2) (assay: SPR).
For rdACE2 E38D, the Kd was 43.4 nM. rdACE2 L24Q showed a Kd of 54.4 nM. rdACE2 R353K showed a Kd of 50.3 nM.
